A mixed list of measured activities; the numbers were collected in NIAID ChemDB.

Shared fields: whole-cell or culture tests; species: HIV-1; cell line: HeLa; read-out: EC50

ECn: concentration that inhibits the pathogen or its effect by n%. An empty or dashed field is not shown. Lines come from different laboratories, so protocols vary. a–b is a range or a potency band.

smiles	strain	read by	conditions	result
CN(C)S(=O)(=O)N1CCN(C(=O)C(=O)c2c[nH]c3c(-n4cncn4)ncc(F)c23)CC1	Recombinant	luciferase		<1 µM
COCC#CC(=C1CCN(C(=O)C(=O)c2c[nH]c3c(OC)ncc(OC)c23)CC1)c1ccccc1		luciferase		<1 µM
CC#Cc1cn([C@@H]2O[C@H](COP(=O)(OCC(Cl)(Cl)Cl)Oc3ccccc3)[C@@H](O)[C@@H]2O)c(=O)[nH]c1=O	HXB2	plaque count		>50 µM
CNC(=O)c1ccc(F)c2c(C(=O)C(=O)N3CCN(S(=O)(=O)N4CCC4)CC3)c[nH]c12	Recombinant	luciferase		>5 µM
COc1cnc(-n2cnc(C)n2)c2[nH]cc(C(=O)C(=O)N3CCC(=C(c4ccccc4)c4cccc(CO)c4)CC3)c12		luciferase		<1 µM
COc1nc2c(cc1N1CCc3ccc(F)cc3C1)c(=O)c(C(=O)O)cn2[C@H](CO)C(C)C	NL4-3	luciferase	pseudotyped	>0.1 µM
CCOC(=O)c1c[nH]c2ccc(C(=O)C(=O)N3CCN(C(=O)c4ccccc4)C[C@H]3C)cc12		luciferase / reporter gene		1–5 µM
COc1ncc(OC)c2c(C(=O)C(=O)N3CCC(=C(C#N)c4ccccc4)CC3)c[nH]c12		luciferase		<1 µM
CNC(=O)c1ccc(F)c2c(C(=O)CN3CCN(C(=O)c4ccccc4)CC3)c[nH]c12		luciferase / reporter gene		1–5 µM
COc1nc2c(cc1Cc1cccc(Cl)c1F)c(=O)c(C(=O)O)cn2[C@H](C)C(C)(C)C	NL4-3	luciferase	pseudotyped	>0.1 µM
N#CC1=CC2Nc3ccccc3C2N(c2ccc([N+](=O)[O-])cc2)C1=O	2AG	GFP / fluorescence		1.01 µM
C[C@@H]1CN(C(=O)C(=O)c2c[nH]c3c(-n4ccnn4)ncc(F)c23)CCN1C(=O)c1ccccc1		luciferase		≤0.0002 µM
Cc1ccc(S(=O)(=O)Nc2cccc3c(C(=O)C(=O)N4CCN(C(=O)c5ccccc5)C[C@H]4C)c[nH]c23)cc1		luciferase / reporter gene		1–5 µM
Cc1cc(C)c(Oc2nc(Nc3ccc(C#N)cc3)nc3ccsc23)c(C)c1		luciferase		<0.01 µM
COc1ccnc2[nH]cc(C(=O)C(=O)N3CCC(=C(C#N)c4ccccn4)CC3)c12		luciferase		<1 µM
C[C@@H]1CN(C(=O)c2ccccc2)CCN1C(=O)C(=O)c1c[nH]c2c(NC(=O)c3ccc(B(O)O)cc3)cccc12		luciferase / reporter gene		<1 µM
CCCn1cc(C(=O)OCc2ccccc2)c(=O)c2c(NC(C)=O)nc(SC)nc21	NL4-3	luciferase	pseudotyped	>0.1 µM
CC1CN(C(=O)c2ccccc2)CCN1C(=O)C(=O)c1ccc2cc(O)ccc2n1		luciferase / reporter gene		<1 µM
Cc1nn(C)c2ncc(C(=O)C(=O)N3CCN(C(=O)c4ccccc4)CC3C)c(Cl)c12		luciferase / reporter gene		>5 µM
COc1ncc(OC)c2c(C(=O)C(=O)N3CCN(C(=O)c4ccccc4)CC3)c[nH]c12		luciferase		0.0002–1 µM
COc1ccc2cc(C(=O)C(C#N)N3CCN(C(=O)c4ccccc4)CC3C)[nH]c2c1		luciferase / reporter gene		<1 µM
COc1ccnc2c1c(C(=O)C(=O)N1CCN(S(=O)(=O)N(C)C)C[C@H]1C)cn2S(=O)(=O)N(C)C	Recombinant	luciferase		>5 µM
CC#Cc1cn([C@@H]2O[C@H](COP(=O)(Oc3ccccc3)Oc3ccc([N+](=O)[O-])cc3)[C@@H](O)[C@@H]2O)c(=O)[nH]c1=O	HXB2	plaque count		>50 µM
Cc1cc(C)c(Oc2nc(Nc3ccc(C#N)cc3)nc3sccc23)c(C)c1	Y181C	luciferase		0.01–0.1 µM
CC#Cc1cn([C@@H]2O[C@H](COP(=O)(O)Oc3ccc(F)cc3)[C@@H](O)[C@@H]2O)c(=O)[nH]c1=O	HXB2	plaque count		>50 µM
CC[n+]1c(-c2ccccc2)c2cc(N)ccc2c2ccc(N)cc21				0.2 µM
CC1CN(C(=O)c2ccccc2)CC(C)N1C(=O)C(=O)c1c[nH]c2cccc(F)c12	LAI	luciferase / reporter gene	pseudotyped	0.0033 µM
COc1cnc(-n2cnc(NCc3ccccn3)n2)c2[nH]cc(C(=O)C(=O)N3CCN(C(=O)c4ccccc4)[C@H](C)C3)c12		luciferase		<1 µM
Cc1cc(C#N)cc(C)c1Nc1nc(Nc2ccc(C#N)cc2)nc2c(C)csc12		luciferase		<0.01 µM
COc1ccc2[nH]c(C(=O)NCc3ccc(Cl)c(Oc4cc(Cl)cc(C#N)c4)c3)cc2c1	HXB2			0.01–1 µM
COc1cnc(-n2ccc(C)n2)c2[nH]cc(C(=O)C(=O)N3CCC(=C(c4ccccc4)c4nccs4)CC3)c12		luciferase		<1 µM
CC[n+]1c(-c2ccccc2)c2cc(NC(N)=O)ccc2c2ccc(N)cc21				3 µM
CC1CN(C(=O)c2ccccc2)CCN1C(C#N)C(=O)c1c[nH]c2ccc(OC(F)(F)F)cc2c1=O		luciferase / reporter gene		<1 µM
Cc1ccc(CSc2nnc(-c3c[nH]c4c(-c5ccccc5)cccc4c3=O)o2)cc1	NL4-3	p24 / ELISA		>100 µM
C[C@@H]1CN(C(=O)c2ccccc2)CCN1C(=O)C1(c2ccc3ccccc3c2)CC1		luciferase / reporter gene		<1 µM
Cn1c(=O)n(C)c2cc(/C=N/NC(=O)Nc3ccccc3)ccc21		cell fusion / luminescence		>112 µM
COc1cnc(-n2nccc2CO)c2[nH]cc(C(=O)C(=O)N3CCN(C(=O)c4ccccc4)[C@H](C)C3)c12		luciferase		<1 µM
O=C(Cc1ccc2ccccc2c1)N1CCN(C(=O)c2ccccc2)CC1		luciferase / reporter gene		1–5 µM
C[C@H]1CN(C(=O)c2ccccc2)CCN1C(=O)C(=O)c1c[nH]c2cccc(F)c12	LAI	luciferase / reporter gene	pseudotyped	0.00138 µM
O=C1NC(=O)c2cc([N+](=O)[O-])c(Sc3c(Cl)cccc3Cl)cc21		single cycle / luminescence	pseudotyped	170 µM
CC1CN(C(=O)c2ccccc2)CCN1C(=O)[C@H](O)c1ccc2ccccc2c1		luciferase / reporter gene		1–5 µM
Cc1ccccc1CSc1nnc(-c2c[nH]c3c(-c4ccccc4)cccc3c2=O)o1	NL4-3	p24 / ELISA		60 µM
COc1c(C(=O)C(=O)N2CCN(C(=O)c3ccccc3)CC2C)cnc2c1c(C)nn2C		luciferase / reporter gene		1–5 µM
CC1CN(C(=O)C(=O)c2c[nH]c3cccc(F)c23)CCN1C(=O)c1ccccc1	JR-FL	luciferase / reporter gene	pseudotyped	0.00214 µM
CC(C)(C)[C@@H](CO)n1cc(C(=O)O)c(=O)c2cc(Cc3cccc(Cl)c3F)c(N3CCNCC3)nc21	NL4-3	luciferase	pseudotyped	0.01–0.1 µM
O=C(C(=O)N1CCN(C(=O)c2ccccc2)CC1)c1cc2ccccc2cn1		luciferase / reporter gene		<1 µM
Cc1cc(C)c(Nc2nc(Nc3ccc(C#N)cc3)nc3ccsc23)c(C)c1	Y181C	luciferase		0.01–0.1 µM
N#CC(=C1CCN(C(=O)C(=O)c2c[nH]c3c(NC(=O)NC(CCC(=O)O)C(=O)O)cccc23)CC1)c1ccccc1		luciferase / reporter gene		<1 µM
C[C@@H]1CN(C(=O)c2ccccc2)CCN1C(=O)C(=O)c1n[nH]c2ccccc12		luciferase / reporter gene		<1 µM
C[C@@H]1CN(C(=O)c2ccccc2)CCN1C(=O)C(=O)c1c[nH]c2c(NC(=O)C(O)C(N)C(=O)O)cccc12		luciferase / reporter gene		<1 µM
O=C(NN=C1CCCCC1)NC1CCCCC1		cell fusion / luminescence		>112 µM
O=C(C(=O)N1CCN(C(=O)c2ccccc2)CC1)c1ccc2ccccc2c1		luciferase / reporter gene		<1 µM
C[C@@H]1CN(C(=O)c2ccccc2)CCN1C(=O)C(=O)c1ccc2c(C#N)c[nH]c2c1		luciferase / reporter gene		<1 µM
O=C(N/N=C/c1ccncc1)C1CCCCC1		cell fusion / luminescence		>112 µM
COc1cnc(-c2cnc(N)cn2)c2[nH]cc(C(=O)C(=O)N3CCC(=C(C#N)c4ccccc4)CC3)c12		luciferase		<1 µM
O=C(N/N=C/c1ccccc1)NC1CCCCC1		cell fusion / luminescence		>112 µM
COc1ncc(OC)c2c(C(=O)C(=O)N3CCC(=C(c4ccccc4)c4cccc([N+](=O)[O-])c4)CC3)c[nH]c12		luciferase		<1 µM
Cc1ccc(C[C@@H](C)[C@@H](C)Cc2ccc(C)c(C)c2)cc1C		single cycle / luminescence	pseudotyped	42 µM
COC(=O)c1ccc(-c2ncc(OC)c3c(C(=O)C(=O)N4CCC(=C(C#N)c5ccccc5)CC4)c[nH]c23)cc1		luciferase		<1 µM
COc1cccc2[nH]cc(C(=O)C(=O)N3CCN(C(=O)c4ccccc4)C[C@@H]3C)c12	LAI	luciferase / reporter gene	pseudotyped	0.00333 µM
CC(=O)NN=C1CCC(=NNC(C)=O)CC1		cell fusion / luminescence		>112 µM
C[C@@H]1CN(C(=O)c2ccccc2)CCN1C(=O)C(=O)c1c[nH]c2cccc(F)c12	LAI	luciferase / reporter gene	pseudotyped	<0.00016 µM
C[C@H]1CN(C(=O)c2ccccc2)CCN1C(=O)C(=O)c1ccc2ccccc2n1		luciferase / reporter gene		<1 µM
CC(=O)c1c(C)nc(-c2ccccc2)nc1NC(=O)c1ccccc1	C-98IN022	GFP / fluorescence		1.08 µM
C=C(C)C1CC=C(C)/C(=N\NC(=O)Nc2ccccc2)C1		cell fusion / luminescence		>112 µM
COc1ncc(OC)c2c(C(=O)C(=O)N3CCC(=C(C#N)c4csc5ccccc45)CC3)c[nH]c12		luciferase		<1 µM
CC#Cc1cn([C@@H]2O[C@H](COP(=O)(O)OCCCCCCCCCCCCCCCC)[C@@H](O)[C@@H]2O)c(=O)[nH]c1=O	HXB2	plaque count		>5 µM

The last 10 rows once more:

smiles	strain	read by	conditions	result
Cc1ccc(C[C@@H](C)[C@@H](C)Cc2ccc(C)c(C)c2)cc1C		single cycle / luminescence	pseudotyped	42 µM
COC(=O)c1ccc(-c2ncc(OC)c3c(C(=O)C(=O)N4CCC(=C(C#N)c5ccccc5)CC4)c[nH]c23)cc1		luciferase		<1 µM
COc1cccc2[nH]cc(C(=O)C(=O)N3CCN(C(=O)c4ccccc4)C[C@@H]3C)c12	LAI	luciferase / reporter gene	pseudotyped	0.00333 µM
CC(=O)NN=C1CCC(=NNC(C)=O)CC1		cell fusion / luminescence		>112 µM
C[C@@H]1CN(C(=O)c2ccccc2)CCN1C(=O)C(=O)c1c[nH]c2cccc(F)c12	LAI	luciferase / reporter gene	pseudotyped	<0.00016 µM
C[C@H]1CN(C(=O)c2ccccc2)CCN1C(=O)C(=O)c1ccc2ccccc2n1		luciferase / reporter gene		<1 µM
CC(=O)c1c(C)nc(-c2ccccc2)nc1NC(=O)c1ccccc1	C-98IN022	GFP / fluorescence		1.08 µM
C=C(C)C1CC=C(C)/C(=N\NC(=O)Nc2ccccc2)C1		cell fusion / luminescence		>112 µM
COc1ncc(OC)c2c(C(=O)C(=O)N3CCC(=C(C#N)c4csc5ccccc45)CC3)c[nH]c12		luciferase		<1 µM
CC#Cc1cn([C@@H]2O[C@H](COP(=O)(O)OCCCCCCCCCCCCCCCC)[C@@H](O)[C@@H]2O)c(=O)[nH]c1=O	HXB2	plaque count		>5 µM